Laboratory results reported in the supplement of paper PMC9931576.
Human monoclonal antibodies against the spike receptor-binding domain (heavy:light variable regions). IC50 against pseudoviruses bearing the spike of naturally observed variants; lower = stronger; >10 µg/ml means not reached at the top dose. No active / inactive call. The stated detection limit is 0.0005 µg/ml; values near or below 0.001 µg/ml lie at the floor of the assay.

B1: BD55-4359 (protein)
chain 1: QVTLRESGPALVKPTQTLTLTCTYSGFSVNTRGMCVSWIRQPPGKALEWLALIAWDDDTSYSKSLKTRLSIYKDTSKNQVVLTMTNMDPVDTATYYCARGTGVAGDNWFDPWGQGTLVTVSS
chain 2: SYELTQPPSVSVSPGQTARIACSGDAFPNQYAYWYQQKPGQAPVLVIYKDSERPSGIPERFSGSSSGTTVTLTISGVQAEDEADYFCQSADSSGVVFGGGTKLTVL
B2: BD55-4360 (protein)
chain 1: QVQLVESGGGVVQPGRSLRLSCAASGFTFSSYAMHWVRQAPGKGLEWVAIISNDGNNKFYADSVKGRFIISRDNSRNTLYLQMNSLRAEDTALYYCARDRGTYYDLLDYWGQGTLVTVSS
chain 2: DIVMTQSPDSLAVSLGERATINCKSSQKILSSSNNKNYLAWYQQKPGQPPKLLIYWASTRESGVPDRFTGSGSGTDFTLTISSLQAEDVAVYYCQQYYNTPVLTFGGGTKVEIK
B3: BD55-4364 (protein)
chain 1: EVQLVESGGALVQPGGSLRLSCAASGFTFSTYAMHWVRQAPGKGLEYVAAINNNGGGTFYANSVKGRFTISRDNSKNTLYLQMGSLRAEDMSVYYCAREGHSSNWYGLFFDYWGQGTLVTVSS
chain 2: DIQMTQSPSSLSASVGDRVTITCRASQSINNYLNWYQQKPGKAPKLLIYAASTLQSGVPSRFSGSGSGTDFTLTISSLQPEDFATYYCQQSYITPMYTFGRGTKLEIK
B4: BD55-4382 (protein)
chain 1: QVQLVQSGAEVKKPGSSVKVSCKASGGNFIRDAFSWVRQAPGQGLEWMGRIIPFLEIPIYAQKFQDRVTITADKPTSTAYMELSSLRSEDTAVYYCARAQIVDIALAYNAVYYYGMDVWGQGTTVTVSS
chain 2: DIQLTQSPSFLSASVGDRVTITCRASQGINNYLAWYQQNPGRAPKLLIYVASSLQSGVPSRFSGSGSGTEFTLTISSLQPEDFATYYCQQLNSYPLTFGGGTKVEIK
B5: BD55-1027 (protein)
chain 1: QVQLQQWGAGLLKPSETLSLNCTVHGGPFRNFYWSWIRQSPGMGLEWIGEISHTGSTNYNPSLRSRVTISLDTPKSQFSVTLTSVTAADTAVYYCARETVGAAGYGAFDLWGQGTMVSVSS
chain 2: QAGLTQPPSVSKALGQTATLTCTGNSNTVGNQGAAWLQQRQGRPPKLLSYRNNNRPAGISERFSASNSGNTASLTIDRLQPEDEADYYCSAWDSSISAWLFGGGTKLTVL
B6: BD55-4483 (protein)
chain 1: EVQLVESGGGLVQPGRSLRLTCAASGFAFDDHAMHWVRQAPGKGLEWVAGISWHSGSIGYGDSVKGRFTISRDNAKNSLYLQMNSLRAEDTALYYCAKESRFGYTGYDFLGVEAFDIWGQGTKVSVSS
chain 2: QSVLTQPPSVSGAPGQTVTISCTGSSSNIGAGYDVHWYQQLPGTAPKLLIYGNTNRPSGVPDRFSGSKSGTSASLAITGLQAGDEADYYCQSFDSSLSGSTVFGGGTKVTVL

The binders below were run against SARS-CoV-2 Omicron BA.1 spike pseudovirus (assay: pseudovirus neutralization IC50; higher = weaker neutralization).
Experimental: (§1)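 Single-round VSV luciferase pseudovirus mixed with antibody dilutions for 1 h and put on Huh-7 cells for about a day; IC50 from the dose curve.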
B1 was tested, and the “pseudovirus neutralization IC50” value was > 10 mg/L. With B2 the “pseudovirus neutralization IC50” value was > 10 mg/L. For B3, the “pseudovirus neutralization IC50” value was > 10 mg/L. B4 was tested, and the “pseudovirus neutralization IC50” value was > 10 mg/L. With B5 the “pseudovirus neutralization IC50” value was 2.4 mg/L. B6 was tested, and the “pseudovirus neutralization IC50” value was > 10 mg/L.

The binders below were run against SARS-CoV-2 Omicron BA.2 spike pseudovirus in the same assay as above.
Experimental: as §1
With B1 the “pseudovirus neutralization IC50” value was > 10 mg/L. With B2 the “pseudovirus neutralization IC50” value was > 10 mg/L. In the case of B3, the “pseudovirus neutralization IC50” value is reported as > 10 mg/L. B4 was tested, and the “pseudovirus neutralization IC50” value was > 10 mg/L. With B5 the “pseudovirus neutralization IC50” value was 7.24 mg/L. B6 was tested, and the “pseudovirus neutralization IC50” value was > 10 mg/L.

Each binder was assayed against SARS-CoV-2 Omicron BA.2.75 spike pseudovirus in the same assay as above.
Experimental: as §1
B1 was tested, and the “pseudovirus neutralization IC50” value was > 10 mg/L. B2 was tested, and the “pseudovirus neutralization IC50” value was > 10 mg/L. With B3 the “pseudovirus neutralization IC50” value was > 10 mg/L. With B4 the “pseudovirus neutralization IC50” value was > 10 mg/L. In the case of B5, the “pseudovirus neutralization IC50” value is reported as 3.87 mg/L. For B6, the “pseudovirus neutralization IC50” value was > 10 mg/L.

What follows are binders tested against SARS-CoV-2 Omicron BA.5 spike pseudovirus in the same assay as above.
Experimental: as §1
For B1, the “pseudovirus neutralization IC50” value was > 10 mg/L. For B2, the “pseudovirus neutralization IC50” value was > 10 mg/L. For B3, the “pseudovirus neutralization IC50” value was > 10 mg/L. In the case of B4, the “pseudovirus neutralization IC50” value is reported as > 10 mg/L. For B5, the “pseudovirus neutralization IC50” value was 7.31 mg/L. For B6, the “pseudovirus neutralization IC50” value was > 10 mg/L.

What follows are binders tested against SARS-CoV-2 Omicron BQ.1.1 spike pseudovirus in the same assay as above.
Experimental: as §1
B1 was tested, and the “pseudovirus neutralization IC50” value was > 10 mg/L. In the case of B2, the “pseudovirus neutralization IC50” value is reported as > 10 mg/L. For B3, the “pseudovirus neutralization IC50” value was > 10 mg/L. In the case of B4, the “pseudovirus neutralization IC50” value is reported as > 10 mg/L. For B5, the “pseudovirus neutralization IC50” value was 8.83 mg/L. For B6, the “pseudovirus neutralization IC50” value was > 10 mg/L.

Each binder was assayed against SARS-CoV-2 Omicron XBB spike pseudovirus in the same assay as above.
Experimental: as §1
With B1 the “pseudovirus neutralization IC50” value was > 10 mg/L. In the case of B2, the “pseudovirus neutralization IC50” value is reported as > 10 mg/L. In the case of B3, the “pseudovirus neutralization IC50” value is reported as > 10 mg/L. In the case of B4, the “pseudovirus neutralization IC50” value is reported as > 10 mg/L. B5 was tested, and the “pseudovirus neutralization IC50” value was > 10 mg/L. B6 was tested, and the “pseudovirus neutralization IC50” value was > 10 mg/L.

The binders below were run against SARS-CoV-2 early D614G spike pseudovirus in the same assay as above.
Experimental: as §1
B1 was tested, and the “pseudovirus neutralization IC50” value was > 10 mg/L. For B2, the “pseudovirus neutralization IC50” value was > 10 mg/L. With B3 the “pseudovirus neutralization IC50” value was > 10 mg/L. In the case of B4, the “pseudovirus neutralization IC50” value is reported as 2.34 mg/L. With B5 the “pseudovirus neutralization IC50” value was 1.14 mg/L. In the case of B6, the “pseudovirus neutralization IC50” value is reported as 0.062 mg/L.
